The values below come from patent US20090042870A1, “Antimicrobial Composition” (priority 2005, published 2009).

The data set is described as follows: User opinion poll (smell, feel, preference). The note with it: sum of scores Good = +1, No opinion = 0, Poor = −1; 15 participants.

Compound `CC(C)O` [propan-2-ol 60% (v/v), Propan-2-ol] gave a Feel score of −5 and a Smell score of −9.
